Experimental data taken from patent publication US20250339817A1, “A PROCESS FOR THE NITRIC OXIDE ABATEMENT THROUGH BIOLOGICAL TREATMENTS” (FUNDACIÓ EURECAT, priority 2022, published 2025).

Tested on: biomass from the SBR
Test: Long-term biodegradability test (ultimate BOD, OECD 301 F)

Row | Structure (SMILES) | Degradation in the 28 days of the test [%]
1 | CC(CC(C)(C)C)CC(C)(C)CC(C)(C)C (centres unmarked) [HNO, 2,2,4,4,6,8,8-heptamethylnonane] | 1
2 | CCCCCCCCCCCCCCCC [HEX, n-hexadecane] | 8
